Reference: ChEMBL document CHEMBL6134870 (J Med Chem, 2025)

Amino acid sequences for entries named in this document (tags omitted).
UniProt P0DPI0, whole entry, looked up: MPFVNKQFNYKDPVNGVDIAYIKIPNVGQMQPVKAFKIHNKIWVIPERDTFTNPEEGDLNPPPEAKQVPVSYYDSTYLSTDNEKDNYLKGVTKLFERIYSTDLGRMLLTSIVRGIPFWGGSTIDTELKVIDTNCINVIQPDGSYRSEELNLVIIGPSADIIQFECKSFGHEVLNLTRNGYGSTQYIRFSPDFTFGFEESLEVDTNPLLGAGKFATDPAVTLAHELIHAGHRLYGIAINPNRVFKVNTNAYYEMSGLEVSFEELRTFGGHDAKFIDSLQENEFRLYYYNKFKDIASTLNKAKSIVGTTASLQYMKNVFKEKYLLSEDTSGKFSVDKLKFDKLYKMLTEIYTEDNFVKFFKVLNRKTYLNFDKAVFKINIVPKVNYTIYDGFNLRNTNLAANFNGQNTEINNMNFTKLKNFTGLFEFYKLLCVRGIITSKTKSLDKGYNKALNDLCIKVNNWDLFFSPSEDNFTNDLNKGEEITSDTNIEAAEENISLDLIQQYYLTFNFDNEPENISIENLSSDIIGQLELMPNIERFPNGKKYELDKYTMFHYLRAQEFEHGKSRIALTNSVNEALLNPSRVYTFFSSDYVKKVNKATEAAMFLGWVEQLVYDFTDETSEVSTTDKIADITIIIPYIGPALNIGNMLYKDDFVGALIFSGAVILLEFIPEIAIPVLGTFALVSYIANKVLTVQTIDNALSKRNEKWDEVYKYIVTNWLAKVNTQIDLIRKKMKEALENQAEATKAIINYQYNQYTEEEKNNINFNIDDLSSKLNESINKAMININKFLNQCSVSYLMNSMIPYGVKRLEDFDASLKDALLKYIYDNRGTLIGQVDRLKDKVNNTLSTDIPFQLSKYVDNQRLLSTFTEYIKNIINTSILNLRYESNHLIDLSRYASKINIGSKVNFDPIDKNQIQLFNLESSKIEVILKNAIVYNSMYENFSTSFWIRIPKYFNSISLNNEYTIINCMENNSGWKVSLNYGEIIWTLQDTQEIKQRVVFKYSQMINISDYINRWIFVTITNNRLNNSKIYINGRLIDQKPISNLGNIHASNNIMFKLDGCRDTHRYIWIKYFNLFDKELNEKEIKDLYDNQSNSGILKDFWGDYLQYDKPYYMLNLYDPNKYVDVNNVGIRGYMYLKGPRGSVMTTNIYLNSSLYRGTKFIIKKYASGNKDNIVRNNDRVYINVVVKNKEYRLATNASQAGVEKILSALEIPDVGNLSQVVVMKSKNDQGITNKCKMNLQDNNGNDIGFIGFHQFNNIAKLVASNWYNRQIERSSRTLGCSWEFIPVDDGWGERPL

Tests used:
[1] = biological target: Botulinum neurotoxin type A (Clostridium botulinum) (UniProt P0DPI0); test: Covalent inhibition of Botulinum neurotoxins A light chain assessed as dissociation constant for GSH
[2] = biological target: Botulinum neurotoxin type A (Clostridium botulinum) (UniProt P0DPI0); test: Competitive inhibition of Botulinum neurotoxins A assessed as interaction factor alpha in presence of DCHA

Row | SMILES | K [1] [M⁻¹ s⁻¹] | Activity [2]
1 | NC(=O)CI | 0.167 | –
2 | S=C1Cc2cc(Br)ccc2N1 | – | 25
